A mixed list of measured activities; the numbers were collected in NIAID ChemDB.

Shared fields: whole-cell or culture tests; organism: HIV-1; cell line: CEM; read-out: fold resistance

Fold resistance: result on the changed form divided by that on wild type.

SMILES	strain or isolate	mutations	read by	value
Nc1ncnc2c1ncn2CCOCP(=O)(O)O	IIIB TIBO R82150-resistant (RT L100I)	RT-L100I	syncytia	2.14
N#CCN1C(=O)N(Cc2ccccc2)S(=O)(=O)c2cscc21	-	RT-E138K	syncytia	6
CCOCn1c(Cc2cc(C)cc(C)c2)c(CC)c(=O)[nH]c1=O	IIIB HEPT-resistant (RT Y188H)	RT-Y188H	syncytia	217
O=c1[nH]cnc2c1ncn2[C@H]1CC[C@@H](CO)O1	IIIB-Nevirapine(1.0)(RT-Y181C)	RT-Y181C	syncytia	4
CCn1c(=O)c(C)cn([C@@H]2O[C@H](CO[Si](C)(C)C(C)(C)C)C3(OS(=O)(=O)C=C3N)[C@H]2O[Si](C)(C)C(C)(C)C)c1=O	IIIB TIBO R82913 STR-B02 (RT L100I E138K)	RT-L100I E138K	syncytia	>1670
CC(C)Nc1cccnc1N1CCN(C(=O)c2cc3ccccc3[nH]2)CC1	HEPT (RT Y188H)	RT-Y188H	syncytia	22
CCNc1cccnc1N1CCN(C(=O)c2cc3cc(OC)ccc3[nH]2)CC1	IIIB-TIBO(0.5)(RT-L100I)	RT-L100I	syncytia	65
Nc1ncnc2c1ncn2CCOCP(=O)(O)O	Clinical isolate HA20.17	RT-A62V V75I F77L Q151M M184V	syncytia	6
O=c1[nH]cnc2c1ncn2[C@H]1CC[C@@H](CO)O1	IIIB TIBO R82913 STR-2 (RT K103N)	RT-K103N	syncytia	1.5
CC(C)Nc1cccnc1N1CCN(C(=O)c2cc3cc(NS(C)(=O)=O)ccc3[nH]2)CC1	D-3 (RT-V108I M184I)	RT-V108I M184I	cytopathic effect	5
Fc1cccc(F)c1C1SCc2nc3ccccc3n21	Pyridinone-resistant (RT Y181C)	RT-Y181C	cytopathic effect / MTT	9.98
Cc1cn([C@@H]2O[C@H](CO[Si](C)(C)C(C)(C)C)C3(OS(=O)(=O)C=C3N)[C@H]2O[Si](C)(C)C(C)(C)C)c(=O)n(C)c1=O	IIIB nevirapine-resistant (RT Y181C)	RT-Y181C	syncytia	>1670
Cc1cn([C@@H]2O[C@H](CO[Si](C)(C)C(C)(C)C)C3(OS(=O)(=O)C=C3N)[C@H]2O[Si](C)(C)C(C)(C)C)c(=O)n(C)c1=O	TSAO(RT-E138K)	RT-E138K	syncytia	>1875
Cc1cn([C@@H]2O[C@H](CO[Si](C)(C)C(C)(C)C)C3(OS(=O)(=O)C=C3N)[C@H]2O[Si](C)(C)C(C)(C)C)c(=O)n(C)c1=O	IIIB	RT-V106A	cytopathic effect	15.33
CCN1C(=O)N(Cc2cccc(Cl)c2)S(=O)(=O)c2cscc21	-	RT-E138K	syncytia	8.36
CCc1cc(NCc2nc3c(Cl)ccc(Cl)c3o2)c(=O)[nH]c1C	IIIB E-EBU(RT-Y181C)	RT-Y181C	syncytia	>1430
Cc1cn([C@H]2C[C@H](N=[N+]=[N-])[C@@H](CO)O2)c(=O)[nH]c1=O	A-0 (RT-L100I)	RT-L100I	cytopathic effect	6
CC(C)=CCOc1cc(NC(=S)c2ccoc2C)ccc1Cl	IIIB	RT-L100I	cytopathic effect	4
Nc1nc2c(ncn2[C@H]2CC[C@@H](CO)O2)c(=O)[nH]1	IIIB TIBO R82913 STR-1 (RT L100I Y181C)	RT-L100I Y181C	syncytia	0.7
CC(C)=CCN1Cc2cc(Cl)cc3[nH]c(=S)n(c23)C[C@@H]1C	IIIB-TSAO-m3T(10)(RT-Y181C)	RT-Y181C	syncytia	42.9
Fc1cccc(F)c1C1SCc2nc3ccccc3n21	-	RT-L100I	cytopathic effect	2.24
CC(C)=CCN1Cc2cc(Cl)cc3[nH]c(=S)n(c23)C[C@@H]1C	IIIB PYR(RT-Y181C)	RT-Y181C	syncytia	100
Cc1occc1C(=S)Nc1ccc(Cl)c(/C=N/OC(C)(C)C)c1	IIIB	RT-V106A	syncytia	14.55
Fc1cccc(F)c1[C@H]1SCc2nc3ccccc3n21	IIIB	RT-V106N	cytopathic effect / XTT	7.82
O=C1N(Cc2ccccc2)c2cscc2S(=O)(=O)N1Cc1ccccc1	-	RT-Y188H	syncytia	4.33
Cc1c(N)nc(N)nc1OCCOCP(=O)(O)O	Clinical isolate L6.5	RT-S68G K70T V75I F77L K103N F116Y Q151M K219R	syncytia	4.03
CC(C)Nc1cccnc1N1CCN(C(=O)c2cc3cc(NS(C)(=O)=O)ccc3[nH]2)CC1	Quin-0.1 (RT V106A P225H)	RT-V106A P225H	syncytia	3.5
CC(C)=CCOc1cc(NC(=S)c2ccoc2C)ccc1Cl	B-1 (RT L100V K103R/K Y188H)	RT-L100V K103R/K Y188H	cytopathic effect	5
C=C(C)OC(=O)N1c2cc(Cl)ccc2NC(=S)C1(C)C	NEV(RT-V106A)	RT-V106A	syncytia	11.4
CC(C)=CCN1Cc2cc(Cl)cc3[nH]c(=S)n(c23)C[C@@H]1C	IIIB	RT-K103N	cytopathic effect	≥312.5
Cc1cn([C@H]2C[C@H](N=[N+]=[N-])[C@@H](CO)O2)c(=O)[nH]c1=O	IIIB-TIBO(0.5)(RT-L100I)	RT-L100I	syncytia	1.33
CCOCn1c(Cc2ccccc2)c(CC)c(=O)[nH]c1=O	IIIB PYR(RT-Y181C)	RT-Y181C	syncytia	27.5
N#CCN1C(=O)N(Cc2cccc(F)c2)S(=O)(=O)c2cscc21	-	RT-Y181C	syncytia	47.5
Cc1cn([C@@H]2O[C@H](CO[Si](C)(C)C(C)(C)C)C3(OS(=O)(=O)C=C3N)[C@H]2O[Si](C)(C)C(C)(C)C)c(=O)n(C)c1=O	IIIB	RT-D138K	cytopathic effect / XTT	>533
CCn1c(=O)c(C)cn([C@@H]2O[C@H](CO[Si](C)(C)C(C)(C)C)C3(OS(=O)(=O)C=C3N)[C@H]2O[Si](C)(C)C(C)(C)C)c1=O	IIIB PYR(RT-Y181C)	RT-Y181C	syncytia	>833
C[C@H](Cn1cnc2c(N)ncnc21)OCP(=O)(O)O	Clinical isolate HA20.17	RT-A62V V75I F77L Q151M M184V	syncytia	15.8
Fc1cccc(F)c1C1SCc2nc3ccccc3n21	IIIB	RT-Y188C	cytopathic effect / XTT	2.99
CC(C)=CCN1Cc2cc(Cl)cc3[nH]c(=S)n(c23)C[C@@H]1C	IIIB TIBO R82150-resistant (RT L100I)	RT-L100I	syncytia	85
Fc1cccc(Cl)c1C1OCc2nc3ccccc3n21	Pyridinone-resistant (RT Y181C)	RT-Y181C	cytopathic effect / MTT	≥3.86
C[C@H](COc1cc(N)nc(N)n1)OCP(=O)(O)O	Clinical isolate DE434.4	RT-K65R S68G T69I V75T Q151M	syncytia	≥10.8

For reference, 5 entries again:

SMILES,strain or isolate,mutations,read by,value
CC(C)=CCOc1cc(NC(=S)c2ccoc2C)ccc1Cl,IIIB,RT-L100I,cytopathic effect,4
CCN1C(=O)N(Cc2cccc(Cl)c2)S(=O)(=O)c2cscc21,-,RT-E138K,syncytia,8.36
Cc1occc1C(=S)Nc1ccc(Cl)c(/C=N/OC(C)(C)C)c1,IIIB,RT-V106A,syncytia,14.55
CC(C)=CCN1Cc2cc(Cl)cc3[nH]c(=S)n(c23)C[C@@H]1C,IIIB TIBO R82150-resistant (RT L100I),RT-L100I,syncytia,85
O=C1N(Cc2ccccc2)c2cscc2S(=O)(=O)N1Cc1ccccc1,-,RT-Y188H,syncytia,4.33

Blank or dashed fields: not listed here. Rows are shuffled and stem from different studies.